Pooled drug test results. Numbers come from NIAID ChemDB, via PubChem.

All rows: host cell toxicity; cells: HFF; endpoint: CC50

An empty or dashed field is not shown. Rows are shuffled and stem from different studies. CCn: concentration that lowers growth or viability of the cells by n%.

structure | read by | result
CCCCCCCC/C=C\CCCCCCCCOCCOP(=O)(O)CO[C@H](CO)Cn1ccc(N)nc1=O | neutral red | 56 µM
COC(=O)[C@H](C)NP(=O)(OC[C@H]1C/C1=C/n1cnc2c(=O)[nH]c(N)nc21)Oc1ccccc1 | neutral red | >205 µM
Cc1nsc2nc(SCc3ccccc3)[nH]c12 | visual reading | 10 µM
OC[C@H]1O[C@@H](n2c(Br)nc3cc(Cl)c(Cl)cc32)[C@H](O)[C@@H]1O |  | 188 µM
COc1nc(N)nc2c1ncn2C=C1CC1CO | neutral red | 404 µM
COC(C)c1cn([C@H]2C[C@H](O)[C@@H](CO)O2)c(=O)[nH]c1=O |  | >195 µM
CCCCCCCCCCCCCCOCCCOP(=O)(O)CO[C@H](CO)Cn1ccc(N)nc1=O | neutral red | >100 µM
Nc1nc2c(ncn2/C=C2\CC2[C@H](O)CO)c(=O)[nH]1 | neutral red | >300 µM
CCCCCCCCCCCCCCCCOP(=O)(O)CO[C@H](CO)Cn1ccc(N)nc1=O |  | >157 µM
COc1ncnc2c1ccn2COCCO |  | 100 µM
O=C(NCc1ccc(Cl)cc1)c1cn2c(CCO)cc3cc(CN4CCOCC4)cc(c1=O)c32 | neutral red | 15 µM
Cc1cn(COC(CO)CO)c2ncnc(N)c12 |  | >100 µM
Nc1ncnc2c1ncn2/C=C1/C[C@H]1CO | neutral red | >462 µM
Cn1cc(C(=O)NCc2ccc(Cl)cc2)c(=O)c2cc(CN3CCOCC3)ccc21 | neutral red | >24 µM
CCCCCCCCCCCCCCCCOCCCOP(=O)(O)CO[C@H](CO)Cn1ccc(N)nc1=O | neutral red | 31 µM
CCCCCCCC/C=C\CCCCCCCOCCCOP(=O)(O)CO[C@H](CO)Cn1ccc(N)nc1=O |  | 87 µM
Nc1nc2c(ncn2COCCO)c(=O)[nH]1 | neutral red | >405 µM
Nc1nc(NC2CC2)c2ncn(C=C3CC3CO)c2n1 | neutral red | 327 µM
CCCCCCCCCCCCCCCCCOC[C@H](COP1(=O)CO[C@@H](Cn2ccc(N)nc2=O)CO1)OCc1ccccc1 | neutral red | 77 µM
CCCCCCCC/C=C\CCCCCCCOCCOP1(=O)CO[C@@H](Cn2ccc(N)nc2=O)CO1 |  | 34 µM
Nc1ncnc2c1ncn2C=C1CC1CO | neutral red | >460 µM
CCCCCCCC/C=C\CCCCCCCOCCOP1(=O)CO[C@@H](Cn2ccc(N)nc2=O)CO1 | neutral red | 34 µM
Nc1ccn(C[C@@H](CO)OCP(=O)(O)O)c(=O)n1 |  | >317 µM
CSc1nc2sncc2n1[C@@H]1O[C@H](CO)[C@@H](O)[C@@H]1O | visual reading | 21 µM
CCCCCCCCCCCCCCCCCCOCCCOP1(=O)CO[C@@H](Cn2ccc(N)nc2=O)CO1 | neutral red | 77 µM
Nc1nc2c(ncn2/C=C2\CC2[C@@H](O)CO)c(=O)[nH]1 | neutral red | >300 µM
CC(=O)N[C@H]1C[C@@H](n2cnc3c(N)ncnc32)[C@H](O)[C@@H]1O |  | >100 µg/mL
Cc1nc(-c2ncn([C@@H]3O[C@H](CO)[C@@H](O)[C@H]3O)c2C(N)=O)no1 |  | >100 µM
Cc1nsc2ncn([C@@H]3O[C@H](CO)[C@@H](O)[C@H]3O)c12 | visual reading | 32 µM
CCCCCCCC/C=C\CCCCCCCOCCCOP1(=O)CO[C@@H](Cn2ccc(N)nc2=O)CO1 |  | 46 µM
CSc1nc2sncc2[nH]1 | visual reading | 32 µM
CCCCCCCCCCCCCCCCCCCCOCCCOP(=O)(O)CO[C@H](CO)Cn1ccc(N)nc1=O | neutral red | 90.6 µM
COc1ccc(Cn2cc(C(N)=S)c3c(N)ncnc32)cc1 |  | 49 µM
CCCCCCCCCCCCOCCCOP1(=O)CO[C@@H](Cn2ccc(N)nc2=O)CO1 | neutral red | 63 µM
Nc1nc(N)c2ncn(C34CCC(O)C3(CO)C4)c2n1 |  | >20 µg/mL
Nc1nc2c(ncn2C=C2CC2CO)c(=O)[nH]1 | neutral red | >430 µM
OCC1OC(n2c(Br)cc3cc(Cl)c(Cl)cc32)C(O)C1O | visual reading | 100 µM
[N-]=[N+]=NC(CBr)c1cn([C@H]2C[C@H](O)[C@@H](CO)O2)c(=O)[nH]c1=O |  | >130 µM
CCCCCCCC/C=C\CCCCCCCCOCCOP(=O)(O)CO[C@H](CO)Cn1ccc(N)nc1=O |  | 56 µM
Cc1ccc(Cn2c(N)c(C#N)c3c(N)ncnc32)cc1 |  | 32 µM
Nc1ncnc2c1ncn2C12CCC(O)C1(CO)C2 |  | >100 µg/mL

Again, the opening 3 rows:

structure	read by	result
CCCCCCCC/C=C\CCCCCCCCOCCOP(=O)(O)CO[C@H](CO)Cn1ccc(N)nc1=O	neutral red	56 µM
COC(=O)[C@H](C)NP(=O)(OC[C@H]1C/C1=C/n1cnc2c(=O)[nH]c(N)nc21)Oc1ccccc1	neutral red	>205 µM
Cc1nsc2nc(SCc3ccccc3)[nH]c12	visual reading	10 µM